Source: paper doi:10.1101/2025.06.18.660159 (bioRxiv, 2025)

Target: the molecule itself
Test: native gel or EMSA

B1: STING (natural protein, human (endogenous in HUVEC), UniProt Q86WV6 1-379, looked up)
chain: MPHSSLHPSIPCPRGHGAQKAALVLLSACLVTLWGLGEPPEHTLRYLVLHLASLQLGLLLNGVCSLAEELRHIHSRYRGSYWRTVRACLGCPLRRGALLLLSIYFYYSLPNAVGPPFTWMLALLGLSQALNILLGLKGLAPAEISAVCEKGNFNVAHGLAWSYYIGYLRLILPELQARIRTYNQHYNNLLRGAVSQRLYILLPLDCGVPDNLSMADPNIRFLDKLPQQTGDHAGIKDRVYSNSIYELLENGQRAGTCVLEYATPLQTLFAMSQYSQAGFSREDRLEQAKLFCRTLEDILADAPESQNNCRLIAYQEPADDSSFSLSQEVLRHLRQEEKEEVTVGSLKTSAVPSTSTMSQEPELLISGMEKPLPLRTDFS
  stoichiometry N: 2
